Laboratory results as given in US20220089698A1, “ANTIBODIES THAT TARGET HIV GP120 AND METHODS OF USE” (published 2022).

Assays:
Experiment in all cases: cell-based or functional assay
[1] = target: HIV-1 envelope glycoprotein (gp120) of virus 7141 (HIV-1)
[2] = target: HIV-1 envelope glycoprotein (gp120) of virus VS001 (HIV-1)
[3] = target: HIV-1 envelope glycoprotein (gp120) of virus 92US727 (HIV-1)

Binder	Neutralization IC50 [1] [µg/mL]	Neutralization IC50 [2] [µg/mL]	Neutralization IC50 [3] [µg/mL]
3.1.5-1 (antibody, human IgG1, kappa) heavy: QVQLLQSGAAVTKPGASVRVSCEASGYNIRDYFIHWWRQAPGQGLQWVGWINPKTGQPNNPRQFQGRVSLTRHASWDFDTFSFYMDLKALRSDDTAVYFCARQRSDYWDFDVWGSGTQVTVSSASTKGPSVFPLAPSSKSTSGGTAALGCLVKDYFPEPVTVSWNSGALTSGVHTFPAVLQSSGLYSLSSVVTVPSSSLGTQTYICNVNHKPSNTKVDKKVEPKSCDKTHTCPPCPAPELLAGPDVFLFPPKPKDTLMISRTPEVTCVVVDVSHEDPEVKFNWYVDGVEVHNAKTKPREEQYNSTYRVVSVLTVLHQDWLNGKEYKCKVSNKALPLPEEKTISKAKGQPREPQVYTLPPSREEMTKNQVSLTCLVKGFYPSDIAVEWESNGQPENNYKTTPPVLDSDGSFFLYSKLTVDKSRWQQGNVFSCSVLHEALHSHYTQKSLSLSPGK light: not shown	9.8	0.23	> 17
1.1.121-1 (antibody, human IgG1, kappa) heavy: QVQLLQSGAAVTKPGASVRVSCEASGYNIRDYFIHWWRQAPGQGLQWVGWINPKTGQPNNPRQFQGRVSLTRHASWDFDTFSFYMDLKALRSDDTAVYFCARQRSDYWDFDVWGSGTQVTVSSASTKGPSVFPLAPSSKSTSGGTAALGCLVKDYFPEPVTVSWNSGALTSGVHTFPAVLQSSGLYSLSSVVTVPSSSLGTQTYICNVNHKPSNTKVDKKVEPKSCDKTHTCPPCPAPELLAGPDVFLFPPKPKDTLMISRTPEVTCVVVDVSHEDPEVKFNWYVDGVEVHNAKTKPREEQYNSTYRVVSVLTVLHQDWLNGKEYKCKVSNKALPLPEEKTISKAKGQPREPQVYTLPPSREEMTKNQVSLTCLVKGFYPSDIAVEWESNGQPENNYKTTPPVLDSDGSFFLYSKLTVDKSRWQQGNVFSCSVLHEALHSHYTQKSLSLSPGK light: not shown	28.7	1.3	> 37
1.1.120-1 (antibody, human IgG1, kappa) heavy: QVQLLQSGAAVTKPGASVRVSCEASGYNIRDYFIHWWRQAPGQGLQWVGWINPKTGQPNNPRQFQGRVSLTRHASWDFDTFSFYMDLKALRSDDTAVYFCARQRSDYWDFDVWGSGTQVTVSSASTKGPSVFPLAPSSKSTSGGTAALGCLVKDYFPEPVTVSWNSGALTSGVHTFPAVLQSSGLYSLSSVVTVPSSSLGTQTYICNVNHKPSNTKVDKKVEPKSCDKTHTCPPCPAPELLAGPDVFLFPPKPKDTLMISRTPEVTCVVVDVSHEDPEVKFNWYVDGVEVHNAKTKPREEQYNSTYRVVSVLTVLHQDWLNGKEYKCKVSNKALPLPEEKTISKAKGQPREPQVYTLPPSREEMTKNQVSLTCLVKGFYPSDIAVEWESNGQPENNYKTTPPVLDSDGSFFLYSKLTVDKSRWQQGNVFSCSVLHEALHSHYTQKSLSLSPGK light: not shown	17.8	0.88	> 32.9
3.1.20-1 (antibody, human IgG1, kappa) heavy: QVQLLQSGAAVTKPGASVRVSCEASGYNIRDYFIHWWRQAPGQGLQWVGWINPKTGQPNNPRQFQGRVSLTRHASWDFDTFSFYMDLKALRSDDTAVYFCARQRSDYWDFDVWGSGTQVTVSSASTKGPSVFPLAPSSKSTSGGTAALGCLVKDYFPEPVTVSWNSGALTSGVHTFPAVLQSSGLYSLSSVVTVPSSSLGTQTYICNVNHKPSNTKVDKKVEPKSCDKTHTCPPCPAPELLAGPDVFLFPPKPKDTLMISRTPEVTCVVVDVSHEDPEVKFNWYVDGVEVHNAKTKPREEQYNSTYRVVSVLTVLHQDWLNGKEYKCKVSNKALPLPEEKTISKAKGQPREPQVYTLPPSREEMTKNQVSLTCLVKGFYPSDIAVEWESNGQPENNYKTTPPVLDSDGSFFLYSKLTVDKSRWQQGNVFSCSVLHEALHSHYTQKSLSLSPGK light: not shown	22.1	0.95	> 50
1.1.122-1 (antibody, human IgG1, kappa) heavy: QVQLLQSGAAVTKPGASVRVSCEASGYNIRDYFIHWWRQAPGQGLQWVGWINPKTGQPNNPRQFQGRVSLTRHASWDFDTFSFYMDLKALRSDDTAVYFCARQRSDYWDFDVWGSGTQVTVSSASTKGPSVFPLAPSSKSTSGGTAALGCLVKDYFPEPVTVSWNSGALTSGVHTFPAVLQSSGLYSLSSVVTVPSSSLGTQTYICNVNHKPSNTKVDKKVEPKSCDKTHTCPPCPAPELLAGPDVFLFPPKPKDTLMISRTPEVTCVVVDVSHEDPEVKFNWYVDGVEVHNAKTKPREEQYNSTYRVVSVLTVLHQDWLNGKEYKCKVSNKALPLPEEKTISKAKGQPREPQVYTLPPSREEMTKNQVSLTCLVKGFYPSDIAVEWESNGQPENNYKTTPPVLDSDGSFFLYSKLTVDKSRWQQGNVFSCSVLHEALHSHYTQKSLSLSPGK light: not shown	6.79	0.32	> 42.4
1.1.42-1 (antibody, human IgG1, kappa) heavy: QVQLLQSGAAVTKPGASVRVSCEASGYNIRDYFIHWWRQAPGQGLQWVGWINPKTGQPNNPRQFQGRVSLTRHASWDFDTFSFYMDLKALRSDDTAVYFCARQRSDYWDFDVWGSGTQVTVSSASTKGPSVFPLAPSSKSTSGGTAALGCLVKDYFPEPVTVSWNSGALTSGVHTFPAVLQSSGLYSLSSVVTVPSSSLGTQTYICNVNHKPSNTKVDKKVEPKSCDKTHTCPPCPAPELLAGPDVFLFPPKPKDTLMISRTPEVTCVVVDVSHEDPEVKFNWYVDGVEVHNAKTKPREEQYNSTYRVVSVLTVLHQDWLNGKEYKCKVSNKALPLPEEKTISKAKGQPREPQVYTLPPSREEMTKNQVSLTCLVKGFYPSDIAVEWESNGQPENNYKTTPPVLDSDGSFFLYSKLTVDKSRWQQGNVFSCSVLHEALHSHYTQKSLSLSPGK light: not shown	> 50	0.9	> 50
3.1.19-1 (antibody, human IgG1, kappa) heavy: QVQLLQSGAAVTKPGASVRVSCEASGYNIRDYFIHWWRQAPGQGLQWVGWINPKTGQPNNPRQFQGRVSLTRHASWDFDTFSFYMDLKALRSDDTAVYFCARQRSDYWDFDVWGSGTQVTVSSASTKGPSVFPLAPSSKSTSGGTAALGCLVKDYFPEPVTVSWNSGALTSGVHTFPAVLQSSGLYSLSSVVTVPSSSLGTQTYICNVNHKPSNTKVDKKVEPKSCDKTHTCPPCPAPELLAGPDVFLFPPKPKDTLMISRTPEVTCVVVDVSHEDPEVKFNWYVDGVEVHNAKTKPREEQYNSTYRVVSVLTVLHQDWLNGKEYKCKVSNKALPLPEEKTISKAKGQPREPQVYTLPPSREEMTKNQVSLTCLVKGFYPSDIAVEWESNGQPENNYKTTPPVLDSDGSFFLYSKLTVDKSRWQQGNVFSCSVLHEALHSHYTQKSLSLSPGK light: not shown	23.9	0.57	> 50
1.1.75-1 (antibody, human IgG1, kappa) heavy: QVQLLQSGAAVTKPGASVRVSCEASGYNIRDYFIHWWRQAPGQGLQWVGWINPKTGQPNNPRQFQGRVSLTRHASWDFDTFSFYMDLKALRSDDTAVYFCARQRSDYWDFDVWGSGTQVTVSSASTKGPSVFPLAPSSKSTSGGTAALGCLVKDYFPEPVTVSWNSGALTSGVHTFPAVLQSSGLYSLSSVVTVPSSSLGTQTYICNVNHKPSNTKVDKKVEPKSCDKTHTCPPCPAPELLAGPDVFLFPPKPKDTLMISRTPEVTCVVVDVSHEDPEVKFNWYVDGVEVHNAKTKPREEQYNSTYRVVSVLTVLHQDWLNGKEYKCKVSNKALPLPEEKTISKAKGQPREPQVYTLPPSREEMTKNQVSLTCLVKGFYPSDIAVEWESNGQPENNYKTTPPVLDSDGSFFLYSKLTVDKSRWQQGNVFSCSVLHEALHSHYTQKSLSLSPGK light: not shown	11.3	0.5	> 50
1.1.123-1 (antibody, human IgG1, kappa) heavy: QVQLLQSGAAVTKPGASVRVSCEASGYNIRDYFIHWWRQAPGQGLQWVGWINPKTGQPNNPRQFQGRVSLTRHASWDFDTFSFYMDLKALRSDDTAVYFCARQRSDYWDFDVWGSGTQVTVSSASTKGPSVFPLAPSSKSTSGGTAALGCLVKDYFPEPVTVSWNSGALTSGVHTFPAVLQSSGLYSLSSVVTVPSSSLGTQTYICNVNHKPSNTKVDKKVEPKSCDKTHTCPPCPAPELLAGPDVFLFPPKPKDTLMISRTPEVTCVVVDVSHEDPEVKFNWYVDGVEVHNAKTKPREEQYNSTYRVVSVLTVLHQDWLNGKEYKCKVSNKALPLPEEKTISKAKGQPREPQVYTLPPSREEMTKNQVSLTCLVKGFYPSDIAVEWESNGQPENNYKTTPPVLDSDGSFFLYSKLTVDKSRWQQGNVFSCSVLHEALHSHYTQKSLSLSPGK light: not shown	11.2	0.23	> 43.8
3.1.2-1 (antibody, human IgG1, kappa) heavy: QVQLLQSGAAVTKPGASVRVSCEASGYNIRDYFIHWWRQAPGQGLQWVGWINPKTGQPNNPRQFQGRVSLTRHASWDFDTFSFYMDLKALRSDDTAVYFCARQRSDYWDFDVWGSGTQVTVSSASTKGPSVFPLAPSSKSTSGGTAALGCLVKDYFPEPVTVSWNSGALTSGVHTFPAVLQSSGLYSLSSVVTVPSSSLGTQTYICNVNHKPSNTKVDKKVEPKSCDKTHTCPPCPAPELLAGPDVFLFPPKPKDTLMISRTPEVTCVVVDVSHEDPEVKFNWYVDGVEVHNAKTKPREEQYNSTYRVVSVLTVLHQDWLNGKEYKCKVSNKALPLPEEKTISKAKGQPREPQVYTLPPSREEMTKNQVSLTCLVKGFYPSDIAVEWESNGQPENNYKTTPPVLDSDGSFFLYSKLTVDKSRWQQGNVFSCSVLHEALHSHYTQKSLSLSPGK light: not shown	21.9	0.73	> 50
3.1.16-1 (antibody, human IgG1, kappa) heavy: QVQLLQSGAAVTKPGASVRVSCEASGYNIRDYFIHWWRQAPGQGLQWVGWINPKTGQPNNPRQFQGRVSLTRHASWDFDTFSFYMDLKALRSDDTAVYFCARQRSDYWDFDVWGSGTQVTVSSASTKGPSVFPLAPSSKSTSGGTAALGCLVKDYFPEPVTVSWNSGALTSGVHTFPAVLQSSGLYSLSSVVTVPSSSLGTQTYICNVNHKPSNTKVDKKVEPKSCDKTHTCPPCPAPELLAGPDVFLFPPKPKDTLMISRTPEVTCVVVDVSHEDPEVKFNWYVDGVEVHNAKTKPREEQYNSTYRVVSVLTVLHQDWLNGKEYKCKVSNKALPLPEEKTISKAKGQPREPQVYTLPPSREEMTKNQVSLTCLVKGFYPSDIAVEWESNGQPENNYKTTPPVLDSDGSFFLYSKLTVDKSRWQQGNVFSCSVLHEALHSHYTQKSLSLSPGK light: not shown	39	2.15	> 43
